Test system: Swiss Webster mice
Assay: Bioassay: intracranial injection into Swiss Webster mice (11 days old)

SMILES: NCC(=O)N[C@H]1CSSC[C@@H](C(N)=O)NC(=O)[C@H](Cc2c[nH]c3ccccc23)NC(=O)[C@@H]2CCCN2C(=O)[C@H](CCC(N)=O)NC(=O)[C@@H](Cc2c[nH]c3ccccc23)NC(=O)[C@@H]2C[C@@H](O)CN2C1=O
- symptomatology after intracranial injection into mice (native peptide purified from venom): stiff-tail syndrome
- symptomatology after intracranial injection into mice (synthetic D-Trp-containing peptide, 15 nmol): stiff tail syndrome, paralysis of extremities, circular motion and barrel-rolling
